The data set concerns the molecule itself. The experiment in a line: SEC; SEC on a HiLoad 16/600 Superdex 200 pg column after Ni-NTA purification from HEK293E supernatant. On the technique in general: In gel filtration, larger molecules generally elute earlier.

What is called stoichiometry N is a count of units in the complex or per binding partner.

B1: C25-SAmut (soluble PfCSP with 66KKNSR70 mutated to 66SSNSA70, Cys25 kept) (natural protein)
chain: not shown
notes: Plasmodium falciparum circumsporozoite protein (PfCSP), soluble recombinant form, mammalian codon-optimized; an HRV3C cleavage site stands between the Avi-Tag and the His-tag; source: HEK293E, transient transfection, purified from culture supernatant (Ni-NTA, SEC)
In the case of B1, the “stoichiometry N” value is 2.
